Measurements published in patent publication US10889556B2, “Compositions and methods for inhibiting influenza RNA polymerase PA endonuclease” (The Regents of the University of California, priority 2016, dated 2021).

Target: influenza PA endonuclease (Influenza A virus, UniProt C3W5S0)
Test: Endonuclease activity assay (FAM/TAMRA ssDNA-oligo fluorescence)
Format: biochemical, Pandemic H1N1 influenza A

Molecule `Cc1cc(=O)c(O)cn1-c1ccc(-c2ccccc2)cc1` has an IC50 of 1300 nM and a pIC50 (Table 4) of 5.9.

The match of structure and compound is tentative.
